Numbering of substitutions follows the chain as printed. Human monoclonal antibodies against the spike receptor-binding domain (heavy:light variable regions). IC50 against pseudoviruses bearing the spike of naturally observed variants; lower = stronger; >10 µg/ml means not reached at the top dose. No active / inactive call. The stated detection limit is 0.0005 µg/ml; values near or below 0.001 µg/ml lie at the floor of the assay.
B1: BD56-591 (protein)
chain 1: EVQLVESGGGLVQPGGSLRLSCAASGFTFSRNDMHWVRQSTGKGLEYVSTIGTSGDAYYADSVKGRFSISRENAKNSLFLQMNSLRAGDTAVYFCTRGGDGYKLGSWYFDLWGRGTLVTVSS
chain 2: DIQMTQSPSSLSASLGDRVTIACRASQTIGTFLNWYQQQPGKAPKLLIYAASTLQSGVPSRFSGSGSGTDFTLTISSLQPDDFATYYCQQSYSTSITFGLGTRLEI
B2: BD56-592 (protein)
chain 1: QVQLQESGPGLVKPSETLSLTCTVSGGSISTIRNRIYYWGWIRQSPGKGLEWIGSVHYTGTTYYNKSLTSRVTISVDTSKNQLSLRLSSVTAADTAVYYCARHFYSSDYFDYWGQGTLVTVSS
chain 2: QSVLTQPPSVSGAPGQRVTVSCTGSSSNIGAGYDVHWYRQLPGTTPKLLIYGNSYRPSGVPDRFSGSKSDTSASLAITGLQAEDEADYYCQSYDSSLSAWVFGGGTKLTVL
B3: BD56-595 (protein)
chain 1: QITLKESGPTLVKPTQTLTLTCTFSGFSITTAGVGVGWIRQPPGKALEWLALIYWDGDRRYSPSLKNRVDITTDISKNQVVLTMTNMAPVDTATYYCAQHTIDMILDYWGQGTLVTVSS
chain 2: QSALTQPPSASGSPGQSVTISCTATSSDVGAYNYVSWYQQHPGKAPKLMIYEVNKRPSGVPDRFSGSKSGNTASLTVSGLQAEDEADYYCSSYTDNIVFGTGTRVTVL
B4: BD56-597 (protein)
chain 1: QVQLVQSGAEVKKPGSSVKVSCKASGGTFSTYPISWVRQAPGQGVEWMGAIIPILGTTDYAQIFQGRVTITADKSTSTAYMELSSLRPEDTAVYYCARERGYSGYGAAYYFDSWGQGTLVTVSS
chain 2: B2 chain 2 with V20I, S26D, R39Q, T45A, G52V, S54I, Y55N, D70A, A99G, W100V
B5: BD56-600 (protein)
chain 1: EVQLLESGGGLVQPGGSLRLSCAASGFTFSNYALSWVRQAPGKGLEWVSGISGTGGGTFYADSVKGRFTISRDNSKNTLYLQMNTLRVEDTAVYYCAKEGTDIHWYFDLWGRGTLVTVSS
chain 2: DIQMTQSPSSLSASVGDRVTITCRASQNIRTYLNWYQLKPGKAPKLLIYAASTLQSGVPSRFSAGGSGTDFTLTISSLQPEDFATYYCQQSYSTPPITFGQGTRLEIK
B6: BD56-602 (protein)
chain 1: EVQLVESGGGLVQPGGSLRLSCAASGFTFSSYDMHWVRQVTGKGLEWVSTIGTAGDTYYPGSVKGRFTISRENVKSSLYLQMNSLRAGDTAVYFCARVGYDSSGLHWYIDYWGQGTLVTVSS
chain 2: DIQMTQSPPSLSASVGDRVTITCRASQSIGRYLNWYQQKPGKAPKLLIYAASSLQRGVPSRFSGSGSGTDFTLTITSLQPEDFATYYCQQSYSNPLYTFGQGTKLEI
B7: DH1072 (protein)
chain 1: QVQLVESGGGVVQPGRSLRLSCAASGFTFSHYGMHWVRQAPGKGLEWVALISYDGNNKYYADSVKGRFTISRDNSKNTLYLQMNSLRAEDTAVYYCAKAPYSYAYSVYFFDYWGQGTLVTVSS
chain 2: NFMLTQPHSVSESPGKTVTISCTRSSGSIASNNVQWYQQRPGSAPTTVIYEDNQRPSGVPDRFSGSIDSSSNSASLTISGLKTEDEADYYCQSYDSSNHVVFGGGTKLTVL
B8: BD56-605 (protein)
chain 1: QVQLVQSGPEVKKPGSSVKVSCKASGGTFSSYTISWVRQAPGQGLEWMGRIIPVLSITNYAQKFQGRVTITADTSTRTAYMELSSLSSEDTALYYCARDTRWGDFTDHEVHWFDPWGQGTLVIVSS
chain 2: DIVMTQSPDSLAVSLGERATINCKSSQSVFYSSKDKNCLAWYQQKAGQPPKLLIYWASTRESGVPDRFSGSGSGTDFTLTISSLQAEDVAVYYCQQYYNTADITFGPGTKVDIK
B9: BD56-606 (protein)
chain 1: QMQLVQSGPEVKKPGTSVKVSCKASGFTFTYSAVQWVRQARGQGLEWIGWIVAGSGDTDYAQNFQERVTITRDMSSTTAYMELSSLRSDDTAVYYCAAPYCSGGKCRDGFDMWGQGTMVTVSS
chain 2: EVVLTQSPGTLSLSPGERATLSCRASQSVRSNYLAWYQQKPGQAPRVLIYGASTRATGIPDRFSGSGSGTDFTLIISRLEPEDFAVYYCQQYGNSPWTFGQGTKVEIK
B10: BD56-607 (protein)
chain 1: QVQLVESGGGVVQPGRSLRLSCAASGFSFSNYSMHWVRQAPGEGLEWVSVILDDGTGKLYADSVKGRFTISRDNSKKTLYLEMNSLRAEDTAVYFCARDTTAGTTMVTLFDYWGQGTLVTVSS
chain 2: B5 chain 2 with L38Q, I48M, A50V, T53S, A64G, G65S, T85I, I97W, R104K, E106Y
B11: BD56-609 (protein)
chain 1: QVQLVQSGAEVKKPGASVKVSCKTSGYTFNNYGISWVRQAHGQGLEWMGWISPYNGDTNYAQRLQGRATMTTDTSTTTAYMELRSLRSDDTAVFYCATVAGGLGGDLLSEPYFDYWGQGTLVTVSS
chain 2: SYELTQPPSVSVSPGQTARITCSGDAFPNQYAYWYQQKPGQAPVLVIYRDSERPSGIPERFSGSSSGTTVTLTISGVQAEDEADYYCQSADSRAGVFGGGTKLTVL
B12: BD56-621 (protein)
chain 1: EVQLVESGGGLVQPGGSLRLSCAASGVTVSSNYMTWVRQAPGKGLEGVAVIYPGGSTFYADSVKSRFTISRHNSKNTLYLQMNSLRLEDTAVYYCARDLGPDGMDVWGQGTTVTVSS
chain 2: DIQLTQSPSFLSASVGDRVTITCRSSQGMSSYLAWYQQKPGKAPKLLIYAASTLQSRVPSRFSGSGSGTEFTLTISSLQPEDFATYYCQQLNSDPPVTFGGGTKVEIK

Target: SARS-CoV-2 Omicron BA.1 spike pseudovirus
Experiment: pseudovirus neutralization IC50; higher = weaker neutralization
Description: (§1)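 Single-round VSV luciferase pseudovirus mixed with antibody dilutions for 1 h and put on Huh-7 cells for about a day; IC50 from the dose curve.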

Binder	pseudovirus neutralization IC50
B1	> 10 µg/mL
B2	0.107 µg/mL
B3	0.00119 µg/mL
B4	0.0782 µg/mL
B5	> 10 µg/mL
B6	5.42 µg/mL
B7	> 10 µg/mL
B8	0.0214 µg/mL
B9	0.00154 µg/mL
B10	> 10 µg/mL
B11	3.79 µg/mL
B12	0.00579 µg/mL

Target: SARS-CoV-2 Omicron BA.2 spike pseudovirus
Experiment: as above
Description: as §1

Binder	pseudovirus neutralization IC50
B1	> 10 µg/mL
B2	0.0917 µg/mL
B3	0.000387 µg/mL
B4	0.08 µg/mL
B5	> 10 µg/mL
B6	4.28 µg/mL
B7	> 10 µg/mL
B8	0.00445 µg/mL
B9	0.000965 µg/mL
B10	> 10 µg/mL
B11	2.92 µg/mL
B12	0.00437 µg/mL

Target: SARS-CoV-2 Omicron BA.2.75 spike pseudovirus
Experiment: as above
Description: as §1

Binder	pseudovirus neutralization IC50
B1	> 10 µg/mL
B2	0.0489 µg/mL
B3	0.00209 µg/mL
B4	0.0726 µg/mL
B5	> 10 µg/mL
B6	5.02 µg/mL
B7	> 10 µg/mL
B8	0.0117 µg/mL
B9	0.00103 µg/mL
B10	> 10 µg/mL
B11	4.32 µg/mL
B12	0.998 µg/mL

Target: SARS-CoV-2 Omicron BA.5 spike pseudovirus
Experiment: as above
Description: as §1

Binder	pseudovirus neutralization IC50
B1	> 10 µg/mL
B2	> 10 µg/mL
B3	0.000564 µg/mL
B4	0.122 µg/mL
B5	> 10 µg/mL
B6	4.41 µg/mL
B7	> 10 µg/mL
B8	> 10 µg/mL
B9	0.53 µg/mL
B10	> 10 µg/mL
B11	3.25 µg/mL
B12	0.00915 µg/mL

Target: SARS-CoV-2 Omicron BQ.1.1 spike pseudovirus
Experiment: as above
Description: as §1

Binder	pseudovirus neutralization IC50
B1	> 10 µg/mL
B2	> 10 µg/mL
B3	> 10 µg/mL
B4	0.232 µg/mL
B5	> 10 µg/mL
B6	2.88 µg/mL
B7	> 10 µg/mL
B8	> 10 µg/mL
B9	> 10 µg/mL
B10	> 10 µg/mL
B11	3.38 µg/mL
B12	> 10 µg/mL

Target: SARS-CoV-2 Omicron XBB spike pseudovirus
Experiment: as above
Description: as §1

Binder	pseudovirus neutralization IC50
B1	> 10 µg/mL
B2	> 10 µg/mL
B3	> 10 µg/mL
B4	0.706 µg/mL
B5	> 10 µg/mL
B6	5.78 µg/mL
B7	> 10 µg/mL
B8	> 10 µg/mL
B9	> 10 µg/mL
B10	> 10 µg/mL
B11	4.06 µg/mL
B12	> 10 µg/mL

Target: SARS-CoV-2 early D614G spike pseudovirus
Experiment: as above
Description: as §1

Binder	pseudovirus neutralization IC50
B1	> 10 µg/mL
B2	0.0751 µg/mL
B3	0.001 µg/mL
B4	0.0675 µg/mL
B5	7.87 µg/mL
B6	> 10 µg/mL
B7	1.36 µg/mL
B8	0.202 µg/mL
B9	0.00457 µg/mL
B10	> 10 µg/mL
B11	1.2 µg/mL
B12	0.024 µg/mL

Source: the supplement of paper PMC9931576
